# PubChem BioAssay AID1259414 – Drosophila RNAi Screening Center | 2018
# Assay: 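Fly genes that alter Wolbachia amount inside host cells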 (primary screen)
# Cells: Drosophila JW18 cells infected with Wolbachia
# Reagents: long dsRNA against Drosophila genes, 0.25 µg dsRNA per well of a 384-well plate
# Timing: 5 days
# Challenge: cells persistently infected with Wolbachia before knock-down; no added drug
# Detection: 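Imaged fluorescence in situ signal for Wolbachia 23S rRNA per DAPI-counted host cell, given as a robust z-score within each plate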
# Scale: Wolbachia per cell robust z: higher = more Wolbachia per host cell than the plate typical
# Hit rule: 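Hit when robust z is 1.5 or more, or -1.5 or less, in at least two of three replicates; excludes dsRNAs with several or no targets, genes not expressed in JW18 and well A1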
# The screen tested about 24,000 reagents; below is an unselected part of those that have a named target and a result. Of all reagents, about 1,210 (5%) are marked active. 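Inactive calls also include excluded dsRNAs with several or no targets, genes unexpressed in JW18, and well A1, regardless of score.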 A number with no mark means an inactive call. The numbers tell different reagents against one gene apart. A plus sign joins genes that one reagent is predicted to hit.
target,reagent,"Wolbachia per cell robust z, rep 1","Wolbachia per cell robust z, rep 2","Wolbachia per cell robust z, rep 3"
mim (GeneID 2768716),1,0.0425,1.01,-1.82
mim (GeneID 2768716),2,0.582,0.489,-0.456
Ih (GeneID 36589),1,-2.43,0.206,0.357
Ih (GeneID 36589),2,-0.78,0.565,-0.447
Ih (GeneID 36589),3,0.597,-0.233,-1.65
Ih (GeneID 36589),4,-0.719,-0.397,0.0885
Ih (GeneID 36589),5,-0.0234,0.448,0.00468
Ih (GeneID 36589),6,-0.0758,0.431,-0.246
Ih (GeneID 36589),7,0.0947,-0.765,-0.518
Spn42Da (GeneID 49805),1,-0.735,-1.36,-0.319
Spn42Da (GeneID 49805),2,-1.33,0.274,-1.19
CG13590 (GeneID 37907),1,-2.82,0.0266,0.552
CG13590 (GeneID 37907),2,0.14,0.235,-0.116
CG32755 (GeneID 318192),1,0.641,-0.531,0.989
CG32755 (GeneID 318192),2,0.828,0.546,-8.05
FoxL1 (GeneID 38471),1,1.1,1.45,-1.09
FoxL1 (GeneID 38471),2,-0.313,-0.636,1.12
CG15249 (GeneID 31924),1,0.719,0.733,-2.45
CG10038 (GeneID 41495),1,-0.42,-1.44,0.839
CG32727 (GeneID 318176),1,0.62,0.0962,0.0345
CG12863 (GeneID 36623),1,-0.0882,0.36,-1.17
Muc26B (GeneID 50424),1,-0.0542,0.00158,-0.37
Muc26B (GeneID 50424),2,0.142,-0.631,-0.628
Muc26B (GeneID 50424),3,-3.22,0.221,-0.214
CG32271 (GeneID 38392),1,-0.433,-0.244,0.235
CG32271 (GeneID 38392),2,0.763,0.624,0.246
VhaAC39-2 (GeneID 42739),1,-2.49,-0.318,-0.315
Or43b (GeneID 35743),1,-2.96 (active),-6.77,-0.0386
Or43b (GeneID 35743),2,-0.423,0.983,-0.399
CG9400 (GeneID 32385),1,-4.48,0.716,1.2
Esyt2 (GeneID 42929),1,1.25,1.75,-1.24
CG11050 (GeneID 33924),1,-0.395,0.16,-0.143
CG11050 (GeneID 33924),2,-0.911 (active),-7.81,-1.66
eIF4E6 (GeneID 43422),1,0.346,0.399,1.46
eIF4E6 (GeneID 43422),2,0.14,1.02,0.323
eIF4E6 (GeneID 43422),3,0.449,2.56,-0.493
CG13358 (GeneID 31029),1,-0.6,-0.462,0.766
CG13358 (GeneID 31029),2,1.2,-0.164,-1.57
swm (GeneID 35235),1,0.16,0.448,0.999
swm (GeneID 35235),2,0.848,-0.129,0.275
Sec61beta (GeneID 46080),1,-0.578,-0.744,0.118
Sec61beta (GeneID 46080),2,-1.72 (active),-0.213,-1.69
Sec61beta (GeneID 46080),3,0.0853,-0.379,2.34
Usp20-33 (GeneID 36580),1,-2.12 (active),-7.11,-0.101
RpL4 (GeneID 43349),1,4.66 (active),1.97,5.73
RpL4 (GeneID 43349),2,1.31 (active),3.19,3.13
CG8028 (GeneID 32923),1,0.623,0.827,1.11
CG33252 (GeneID 2768903),1,-0.963,-0.505,-0.367
CG2065 (GeneID 35707),1,0.78,0.424,0.554
CG2065 (GeneID 35707),2,-1.81,0.0387,-0.734
CG2065 (GeneID 35707),3,-1.48,0.114,-0.398
Caf1-105 (GeneID 36107),1,-0.253,0.406,-1.17
Acf (GeneID 43751),1,0.228,-3.53,-0.424
Acf (GeneID 43751),2,-3.55,-0.398,-0.728
CG5174 (GeneID 37117),1,-0.334,0.257,0.313
CG5174 (GeneID 37117),2,0.677,-0.814,0.162
CG10035 (GeneID 41511),1,-0.118,0.178,-5.13
CG10035 (GeneID 41511),2,-1.27,-0.763,-0.701
Gnmt (GeneID 41561),1,0.429,-0.275,0.0344
CG16743 (GeneID 34517),1,-0.114,-0.058,-1.73
pic (GeneID 41611),1,1.34,0.236,-0.0607
CG33332 + CG33331,1,0.833,-0.674,0.0775
CG30479 (GeneID 36631),1,0.43,-0.0853,-1.54
CG30479 (GeneID 36631),2,0.804,-0.455,-0.0922
Fit2 (GeneID 39907),1,1.05,0.366,-2.24
CG3225 (GeneID 33680),1,0.0132,1.38,0.742
CG3225 (GeneID 33680),2,0.661,2.19,0.261
Gss2 + Gss1,1,0.471,-1.95,0.911

Entries listed above with an active call (6):
target,reagent,"Wolbachia per cell robust z, rep 1","Wolbachia per cell robust z, rep 2","Wolbachia per cell robust z, rep 3"
Or43b (GeneID 35743),1,-2.96 (active),-6.77,-0.0386
CG11050 (GeneID 33924),2,-0.911 (active),-7.81,-1.66
Sec61beta (GeneID 46080),2,-1.72 (active),-0.213,-1.69
Usp20-33 (GeneID 36580),1,-2.12 (active),-7.11,-0.101
RpL4 (GeneID 43349),1,4.66 (active),1.97,5.73
RpL4 (GeneID 43349),2,1.31 (active),3.19,3.13
